A mixed list of measured activities; the numbers were collected in NIAID ChemDB.

All rows: growth or infection tests; organism: Mycobacterium tuberculosis

Neighbouring rows are from separate reports. MIC bound comes from a single tested concentration. Inhibition is in % at the dose shown (toxicity tests: loss of growth or viability). MIC50, MIC90 and the like: level of inhibition, or share of isolates inhibited. ECn: concentration that inhibits the pathogen or its effect by n%. Blank or dashed fields: not listed here.

| SMILES | strain | dose | conditions | mutations | read by | measure | value |
|---|---|---|---|---|---|---|---|
| CCCCC(CC)CN1CN(CC(CC)CCCC)CC(C)(NCCNCC2CCCO2)C1 | - | - | - | - | - | MIC | 12.5 µM |
| NC(=O)c1cnccn1 | Isolate 97-826 | - | - | - | - | MIC | 300 µg/mL |
| Cc1[nH]n(CCO)c(=O)c1N=Nc1ccc(-c2n[nH]c(=O)n2-c2ccccc2)cc1 | H37Rv | - | - | - | - | EC50 | >12.5 µg/mL |
| CC(C)=CCC/C(C)=C/CNCCNCc1cccc(C)c1 | - | - | - | - | - | MIC | 50 µM |
| C/C(O)=c1/c(CCC(C)C)c2c(O)c3c(O)c(CCC(C)C)c(=O)cc3oc2cc1=O | H37Ra | - | - | - | resazurin | MIC | 1.56 µg/mL |
| O=[n+]1c(Sc2ccccc2)c(CBr)n([O-])c2ccc(C(F)(F)F)cc21 | H37Rv | 6.25 µg/mL | - | - | - | inhibition | 77% |
| NNC(=O)c1ccncc1 | Clinical Isolate 16995 | - | - | INH RFP resistant | resazurin | MIC90 | >40 µg/mL |
| COc1c(OCc2ccccc2)cc2oc3cc(O)c(CCC(C)C)c(O)c3c(=O)c2c1CCC(C)C | H37Ra | - | - | - | resazurin | MIC | 6.25 µg/mL |
| O=C(O)c1cnc(Cl)cn1 | ATCC 27294 | - | - | - | - | MIC | 128 µg/mL |
| CC(C)(C)c1cccc(N2CC3CN(Cc4ccc([N+](=O)[O-])o4)CC3C2)c1 | H37Rv | - | - | - | resazurin | MIC90 | <0.016 µg/mL |
| CCOC(=O)CC(NCc1ccccc1)c1cccc([N+](=O)[O-])c1 | Sensitive strains | - | - | - | - | MIC | 12.5 µg/mL |
| O=C(Nc1ccc(C2=NCCCN2)cc1)c1ccc(C(=O)Nc2ccc(C3=NCCCN3)cc2)nc1 | RMP-R | - | - | - | - | MIC | 12.5 µg/mL |
| COC(=O)c1ccccc1S(=O)(=O)NC(=O)Nc1nc(C)cc(C)n1 | T13704 | - | - | - | - | MIC | 1.6 µM |
| CCCCCCCCCCCCNCc1ccc(Cl)cc1 | Sensitive strains | - | - | - | - | MIC | 3.12 µg/mL |
| COc1c(O)cc2oc3cc(O)c(CCC(C)C)c(O)c3c(=O)c2c1CCC(C)C | 8 | - | - | MDR | resazurin | MIC | 3.12 µg/mL |
| O=[N+]([O-])c1cc2c(ccc3ccccc32)o1 | H37Rv | 6.25 µg/mL | - | - | resazurin | inhibition | 100% |
| O=c1nc(N2CCN(CC3CCCCC3)CC2)sc2c([N+](=O)[O-])cc(C(F)(F)F)cc12 | Clinical Isolate 16995 | - | - | INH RFP resistant | resazurin | MIC90 | <0.016 µg/mL |
| O=[n+]1c(Sc2ccccc2)c(CBr)n([O-])c2cc(C(F)(F)F)ccc21 | H37Rv | 6.25 µg/mL | - | - | - | inhibition | 88% |
| Cc1[nH]n(-c2ccccc2)c(=O)c1N=Nc1ccc(-c2n[nH]c(=O)n2-c2ccccc2)cc1 | H37Rv | 12.5 µg/mL | - | - | - | inhibition | 0% |
| COc1ccc2oc(=S)n(-c3ccc(C)cc3)c(=S)c2c1 | My 331/88 | - | 21 d | - | - | MIC | 16 µM |
| COc1cc(C(c2c(O)c3ccccc3oc2=O)c2c(O)c3ccccc3oc2=O)cc(OC)c1O | H37Rv | 12.5 µg/mL | - | - | BACTEC | inhibition | 36% |
| CCCCCCCCC=CCCCCCCCCNCc1ccccc1O | Sensitive strains | - | - | - | - | MIC | 1.56 µg/mL |
| O=C(O)/C(O)=C(\O)C(=O)O | H37Rv | - | - | - | BACTEC | MIC bound | >12.5 µg/mL |
| CCCCCCCCCCCNCCNCC1CCCO1 | - | - | - | - | - | MIC | 50 µM |
| CCCCCCCCNC(CC(=O)OCC)c1ccc([N+](=O)[O-])cc1 | Sensitive strains | - | - | - | - | MIC | 25 µg/mL |
| FC(F)(F)c1ccc(-n2c(=S)oc3ccc(Br)cc3c2=S)cc1 | My 331/88 | - | 21 d | - | - | MIC | 4 µM |
| CCCOc1cc2oc3cc(O)c(CCC(C)C)c(O)c3c(=O)c2c(CCC(C)C)c1OC | M6 | - | - | MDR | resazurin | MIC | 3.12 µg/mL |
| Cc1ccc(S(=O)(=O)N2C(=N)C(=S)N(C)C2=O)cc1 | H37Rv | 12.5 µg/mL | - | - | BACTEC | inhibition | 9% |
| CC(CNCC(c1ccccc1)c1ccccc1)N[C@H]1C[C@H]2C[C@@H]([C@@H]1C)C2(C)C | - | - | - | - | - | MIC | 50 µM |
| CN(CCCC#CC(C)(C)C)c1cccc2c1CCC(=O)N2 | H37Rv | - | - | - | - | MIC | 0.78 µg/mL |
| NC(=O)c1cnccn1 | TB206 | - | 7 d | - | - | EC50 | <800 µg/mL |
| NNC(=O)c1ccncc1 | 12119 | - | - | Ofloxacin-resistant | broth dilution | MIC80 | 0.2 µM |
| CCCCCCCCC=CCCCCCCCCNCc1ccncc1 | H37Ra | - | - | - | - | MIC | <25 µg/mL |
| COC(=O)CNC(=O)C(NC(=O)C1CCCN1C(=O)OCc1ccccc1)C(C)C | H37Rv | - | - | - | BACTEC | MIC bound | >12.5 µg/mL |
| CN(CC#CC#CC(C)(C)C)c1cccc2c1CCC(=O)N2 | H37Rv | - | - | - | - | MIC | >6.25 µg/mL |
| O=c1oc2ccc(Cl)cc2c(=S)n1-c1cccc(F)c1 | My 331/88 | - | 14 d | - | - | MIC | 2 µM |
| COc1ccc(OC)c(CCNCCN[C@H]2C[C@H]3CC[C@]2(C)C3(C)C)c1 | - | - | - | - | - | MIC | 25 µM |
| O=S1(=O)c2ccccc2S(=O)(=O)c2ccccc21 | H37Rv | - | - | - | BACTEC | MIC bound | >12.5 µg/mL |
| CO[C@H]1/C=C/O[C@@]2(C)Oc3c(C)c(O)c4c(O)c(c(/C=N/N5CCN(C)CC5)c(O)c4c3C2=O)NC(=O)/C(C)=C\C=C\[C@H](C)[C@H](O)[C@@H](C)[C@@H](O)[C@@H](C)[C@H](OC(C)=O)[C@@H]1C | P4145 | - | - | - | - | MIC | 0.02 µM |
| O=[n+]1c(Sc2ccccc2)c(CBr)n([O-])c2ccccc21 | H37Rv | 6.25 µg/mL | - | - | - | inhibition | 28% |
| CC1=NN(C(=O)c2ccncc2)C(=O)C1N=Nc1ccc(C)cc1 | H37Rv | - | - | - | BACTEC | MIC bound | >12.8 µg/mL |
| CCCCCCCCCCCCCCCCNCc1ccc(O)c(OC)c1 | H37Ra | - | - | - | - | MIC | >25 µg/mL |
| CC1(C)S[C@@H]2[C@H](NC(=O)[C@H](N)c3ccccc3)C(=O)N2[C@H]1C(=O)O | JNS | - | - | - | - | MIC | >92 µM |
| O=[N+]([O-])c1ccc(CN2CC3CN(c4ccc(F)cc4)CC3C2)o1 | H37Rv | - | - | - | resazurin | MIC90 | 0.062 µg/mL |
| O=S(=O)(Nc1nc2ccccc2n1S(=O)(=O)c1ccccc1)c1ccccc1 | H37Rv | 6.25 µg/mL | - | - | - | inhibition | 1% |
| COc1ccc(CNCCNC[C@]2(C)CCC[C@]3(C)c4ccc(C(C)C)cc4CC[C@@H]23)cc1OC | - | - | - | - | - | MIC | 50 µM |
| Cc1[nH][nH]c(=O)c1N=Nc1ccc(C(=O)N/N=C/c2ccc(F)cc2)cc1 | H37Rv | 12.5 µg/mL | - | - | - | inhibition | 5% |
| COc1cc2oc3cc(O)c(CCC(C)C)c(O)c3c(=O)c2c(CCC(C)C)c1OC | M21 | - | - | - | resazurin | MIC | 1.56 µg/mL |
| Cc1c(Cl)[n+](=O)c2ccc(Cl)cc2n1[O-] | H37Rv | 6.25 µg/mL | - | - | - | inhibition | 99% |
| COc1cc2oc3cc(OC)c(OC)c(CC=C(C)C)c3c(=O)c2c(O)c1CC=C(C)C | H37Ra | - | - | - | resazurin | MIC | >200 µg/mL |
| Cc1ccc(-n2c(=O)oc3ccc(Br)cc3c2=S)cc1 | My 331/88 | - | 21 d | - | - | MIC | 1 µM |
| COC(=O)C(CO)NC(=O)C(NC(=O)OCc1ccccc1)C(C)O | H37Rv | - | - | - | BACTEC | MIC bound | >12.8 µg/mL |
| CC(=O)Oc1ccccc1C(=O)Nc1ncc([N+](=O)[O-])s1 | LAM spoligotype 17 | - | - | - | visual reading | MIC | 14.7 µg/mL |
| Brc1ccc(Nc2nnc3nc(-c4ccccc4)c(-c4ccccc4)nn23)cc1 | H37Rv | - | - | - | BACTEC | MIC | 12.5 µg/mL |
| O=C1C[C@@H](c2ccc(O)cc2)Oc2cc(O)c(-c3c(O)cc4c(c3O)C(=O)C[C@@H](c3ccc(O)cc3)O4)c(O)c21 | H37Rv | - | - | - | - | EC50 | >12.5 µg/mL |
| COc1ccc2oc(=O)n(-c3ccc(C)cc3)c(=S)c2c1 | My 331/88 | - | 14 d | - | - | MIC | 16 µM |
| COc1ccc(CC(=O)c2c(O)c3c(c(CC=C(C)C)c2OC)OC(C)(C)C=C3)cc1 | H37Rv | 128 µg/mL | - | - | BACTEC | inhibition | 67% |
| O=C1C[C@@H](c2ccc(O)cc2)Oc2c1c(O)cc(O[C@@H]1O[C@H](CO)[C@@H](O)[C@H](O)[C@H]1O)c2[C@H]1C(=O)c2c(O)cc(O)cc2O[C@@H]1c1ccc(O)cc1 | - | 12.5 µg/mL | - | - | - | inhibition | 0% |
| Cc1ccc2c(c1)[n+](=O)c(S(=O)(=O)c1ccccc1)c(C)n2[O-] | H37Rv | - | - | - | - | MIC | >6.25 µg/mL |
| CCOC(=O)/C(N=Nc1ccc(C(=O)N/N=C\c2ccc(F)cc2)cc1)=C(\C)O | H37Rv | - | - | - | - | EC50 | <12.5 µg/mL |
| CC1(c2cccc3c2C2(O)C=CC4(CCC32)OCCO4)OCCO1 | H37Rv | 12.5 µg/mL | - | - | BACTEC | inhibition | 17% |
| CO[C@H]1/C=C/O[C@@]2(C)Oc3c(C)c(O)c4c(=O)c(c5oc6cc(N7CCN(CC(C)C)CC7)cc(=O)c6nc5c4c3=C2O)NC(=O)/C(C)=C\C=C\[C@H](C)[C@H](O)[C@@H](C)[C@@H](O)[C@@H](C)[C@H](OC(C)=O)[C@@H]1C | FUJII | 1 µg/mL | inside macrophages | - | - | inhibition | 94.6% |
| CCOc1ccccc1NC(=O)CC(=O)N1N=C(C)C(N=Nc2ccccc2C(=O)O)C1=O | H37Rv | - | - | - | BACTEC | MIC | ≥12.8 µg/mL |
| COc1ccc(OC)c(CCNCCNC23CC4CC(CC(C4)C2)C3)c1 | - | - | - | - | - | MIC | 25 µM |
| NNC(=O)c1ccncc1 | ATCC35801 | - | - | - | - | MIC | 0.12 µM |
| Cc1ccc2oc(=O)n(-c3ccc(Br)cc3)c(=S)c2c1 | My 331/88 | - | 14 d | - | - | MIC | 0.5 µM |
| Nc1cc2nc3ccccc3c(=O)n2[nH]1 | H37Rv | 6.25 µg/mL | - | - | resazurin | inhibition | 27% |
| CCOC(=O)/C(N=Nc1ccc(-c2n[nH]c(=S)o2)cc1)=C(\C)O | H37Rv | - | - | - | - | MIC | >12.5 µg/mL |
| Clc1ccc(CCNCCNC2CCCCC2)c(Cl)c1 | - | - | - | - | - | MIC | 50 µM |
| CC(=O)C(N=Nc1nn[nH]n1)C(C)=O | H37Rv | 6.25 µg/mL | - | - | - | inhibition | -6% |
| COc1nc2ccc(Br)cc2cc1[C@@H](c1ccccc1)[C@@](O)(CCN(C)C)c1cccc2ccccc12 | - | - | - | Bedaquiline-resistant I66M | broth dilution | MIC80 | 10 µM |
| Cc1ccc2c(c1)[n+](=O)c(Sc1ccccc1)c(CBr)n2[O-] | H37Rv | 6.25 µg/mL | - | - | - | inhibition | 17% |
| CCCCC(CC)CN1CN(CC(CC)CCCC)CC(C)(NCCNC2CCCCC2C)C1 | - | - | - | - | - | MIC | 25 µM |
| O=[N+]([O-])c1ccc(CN2CCC3(CC2)CCN(c2ccc(C(F)(F)F)cc2)CC3)o1 | Clinical Isolate 16833 | - | - | INH RFP resistant | resazurin | MIC90 | >10 µg/mL |
| O=C(O)c1ccc2c(c1)C(=O)CC(c1ccccc1)O2 | H37Rv | - | - | - | - | EC50 | >12.5 µg/mL |
| CCCCCCCCCCCCCCCCNCc1ccc(F)cc1 | Sensitive strains | - | - | - | - | MIC | 12.5 µg/mL |
| Cn1c2c(c3nc(N)nc(N)c3c1=O)CCc1ccccc1-2 | H37Rv | - | - | - | BACTEC | MIC bound | >12.5 µg/mL |
| COc1nc2ccc(Br)cc2cc1[C@@H](c1ccccc1)[C@@](O)(CCN(C)C)c1cccc2ccccc12 | clinical isolate MAL020165 | - | - | - | resazurin | MIC90 | 0.03125 µg/mL |
| CO[C@H]1/C=C/O[C@@]2(C)Oc3c(C)c(O)c4c(O)c(c(/C=N/N5CCN(C)CC5)c(O)c4c3C2=O)NC(=O)/C(C)=C\C=C\[C@H](C)[C@H](O)[C@@H](C)[C@@H](O)[C@@H](C)[C@H](OC(C)=O)[C@@H]1C | 35820 | - | - | Streptomycin-resistant | broth dilution | MIC80 | 0.04 µM |
| O=C1C[C@@H](c2ccc(O)c(O)c2)Oc2c1c(O)cc(O)c2[C@H]1C(=O)c2c(O)cc(O)cc2O[C@@H]1c1ccc(O)cc1 | - | - | - | - | - | EC50 | >12.5 µg/mL |
| Cc1c(O)ccc2c(O)c(NC(=O)c3ccc4c(c3)CCC(C)(C)O4)c(=O)oc12 | H37Rv | - | - | - | BACTEC | MIC bound | >12.5 µg/mL |
| O=C(O)c1cnccn1 | W7804 | - | - | - | - | MIC | 480 µg/mL |
| O=[N+]([O-])c1ccc(Sc2nc3ccccc3[nH]2)c(Cl)c1 | H37Rv | 6.25 µg/mL | - | - | resazurin | inhibition | -1% |
| COc1ccc2oc(=S)n(-c3cccc(Cl)c3)c(=S)c2c1 | My 331/88 | - | 21 d | - | - | MIC | 32 µM |
| COc1cc2c(cc1OC)C1CC(=O)C(C3(O)C(=O)Nc4ccccc43)CN1CC2 | H37Rv | 12.5 µg/mL | - | - | BACTEC | inhibition | -15% |
| CCOc1cc2c(cc1F)n([O-])c(C)c(S(=O)(=O)c1ccccc1)[n+]2=O | H37Rv | 6.25 µg/mL | - | - | - | inhibition | 100% |

Repeating the final 4 entries:

SMILES	strain	dose	conditions	mutations	read by	measure	value
O=[N+]([O-])c1ccc(Sc2nc3ccccc3[nH]2)c(Cl)c1	H37Rv	6.25 µg/mL	-	-	resazurin	inhibition	-1%
COc1ccc2oc(=S)n(-c3cccc(Cl)c3)c(=S)c2c1	My 331/88	-	21 d	-	-	MIC	32 µM
COc1cc2c(cc1OC)C1CC(=O)C(C3(O)C(=O)Nc4ccccc43)CN1CC2	H37Rv	12.5 µg/mL	-	-	BACTEC	inhibition	-15%
CCOc1cc2c(cc1F)n([O-])c(C)c(S(=O)(=O)c1ccccc1)[n+]2=O	H37Rv	6.25 µg/mL	-	-	-	inhibition	100%